Anti-infective test results gathered from many reports (values: NIAID ChemDB through PubChem).

All rows: toxicity to cultured cells; measure: CC50

CCn is the concentration with n% toxicity to the cells. Conditions beyond the fields shown may differ between rows.

COC(=O)[C@]1(O)C[C@@H]2O[C@@]1(C)n1c3ccccc3c3c4c(c5c6ccccc6n2c5c31)C(=O)NC4 ; cells: Akata ; value: 0.18 µM
O=[N+]([O-])c1cc(C(F)(F)F)ccc1N1CC[N+]2(CC1)CC[N+]1(CCN(c3ccc(C(F)(F)F)cc3[N+](=O)[O-])CC1)CC2 ; cells: GMK ; value: >296.1 µg/mL
CCOC(=O)/C=C/[C@H](C[C@@H]1CCNC1=O)NC(=O)[C@@H](CC(=O)[C@@H](NC(=O)c1cc(C)on1)C(C)C)Cc1ccc(F)cc1 ; cells: BEAS-2B ; value: 320 µM
O=c1ccn(-c2ccc(F)cc2)c2cc(-n3ccnc3)ccc12 ; cells: HPB-ALL ; method: luminescence ; value: 209.1 µM
C#CCCC[C@@H]1OC(=O)CNC(=O)[C@H]([C@@H](C)CC)NC(=O)[C@@H]2CCCN2C(=O)[C@H]([C@@H](C)CC)OC(=O)[C@H](Cc2ccccc2)N(C)C(=O)[C@H](C(C)C)NC(=O)C1(C)C ; cells: MCF-7 ; method: MTT ; value: 13 µM
Cn1c2ccccc2c2c3c(c4c5ccccc5n(CCC#N)c4c21)CNC3=O ; cells: Akata ; value: 0.41 µM
Nc1nc2c(ncn2CCOCP(=O)(O)O)c(=O)[nH]1 ; cells: F-PBMC ; value: 0.23 µM
COc1cc(O)c2c(c1)OC(c1ccc(O)cc1)CC2=O ; cells: THP-1 ; method: MTT ; value: 39.5 µg/mL
Nc1ccn([C@H]2CC[C@@H](CO)O2)c(=O)n1 ; cells: CBMC ; value: 29 µM
CCCc1nccc2cc(O)c(O)cc12 ; cells: H9 ; value: 2.23 µg/mL
Cc1ccc2c(c1)NC(=O)C(NC(=O)c1cccs1)N=C2c1ccccc1 ; cells: HEP-2 ; value: 5 µM
C[C@]1(/C=C/Cl)C[C@](Cl)(CBr)[C@@H](Br)C[C@H]1Cl ; cells: Lul ; value: 12.9 µg/mL
CC[C@@]1(O)C(=O)OCc2c1cc1n(c2=O)Cc2cc3ccccc3nc2-1 ; cells: IMR90 ; value: 0.43 µM
Cc1cn([C@H]2C[C@H](N=[N+]=[N-])[C@@H](CO)O2)c(=O)[nH]c1=O ; cells: CEM-GFP ; method: MTS ; value: >1000 µM
COC(=O)[C@H](C)NP(=O)(OC[C@H]1C/C1=C/n1cnc2c(=O)[nH]c(N)nc21)Oc1ccccc1 ; cells: MEF ; value: >206 µM
COC(=O)[C@@H]1C[C@@H](O[Si](C)(C)C(C)(C)C)[C@@H]2CC=CCN12 ; cells: Human foreskin fibroblasts (HFF) ; method: MTT ; value: 83 µM
COc1cc(N)c(Cl)cc1C(=O)NC1N=C(c2ccccc2)c2ccccc2NC1=O ; cells: HEP-2 ; value: 2.5 µM
COc1ccc(Cc2cc3cc(OC)c(OC)cc3c[n+]2C)cc1OC ; cells: H9 ; value: >100 µg/mL
OC[C@H]1O[C@@H](n2cnc3cc(Cl)c(Cl)cc32)[C@@H](O)[C@H]1O ; cells: E6SM ; value: 100 µg/mL
C=C(c1ccc(OC)c(OC)c1)c1nccc2cc(OC)c(OC)cc12 ; cells: H9 ; value: 1.85 µg/mL
Cc1nc(N2CCC[N+]3(CC2)CC[N+]2(CCCN(c4nc(C)nc5c4no[n+]5[O-])CC2)CC3)c2c(no[n+]2[O-])n1 ; cells: K562 ; value: >291.4 µg/mL
COC(=O)[C@@H]1C[C@@H](O[Si](C)(C)C(C)(C)C)[C@H]2CCCCN21 ; cells: Human foreskin fibroblasts (HFF) ; method: MTT ; value: 80 µM
O=[N+]([O-])c1c(C2CCCCCC2)ncnc1N1CC[N+]2(CC1)CC[N+]1(CCN(c3ncnc(C4CCCCCC4)c3[N+](=O)[O-])CC1)CC2 ; cells: K562 ; value: >271.1 µg/mL
Nc1nc(N)c2ncn([C@H]3CO[C@@H](CO)O3)c2n1 ; cells: DU145 ; value: >500 µM
Nc1[nH]n2c(=O)cc(CN3CC[N+]4(CC3)CC[N+]3(CCN(Cc5cc(=O)n6[nH]c(N)c([N+](=O)[O-])c6n5)CC3)CC4)nc2c1[N+](=O)[O-] ; cells: GMK ; value: >70.3 µg/mL
CCOC(=O)c1ccc2c(c1)nc(-c1ccc(Br)cc1)n2CCN1CCCOC1 ; cells: Vero cell ; method: MTT ; value: >62.5 µg/mL
CC(C)CN(C[C@@H](O)[C@H](Cc1cc(F)cc(F)c1)NC(=O)O[C@H]1CCO[C@H]2OCC[C@H]21)S(=O)(=O)c1ccc2nc(NC(C)C)sc2c1 ; cells: TM-31 ; method: MTT ; value: >100 µM
Cc1ccnc2c1NC(=O)c1cccnc1N2C1CC1 ; cells: 293T ; value: >10 µM
COC(=O)C(C)NOP(OC[C@H]1C/C1=C/n1cnc2c(N)[nH]c(=O)nc21)Oc1ccccc1 ; cells: H-1 ; value: >100 µM
O=C1O[C@H]([C@@H](O)CO)C(O)=C1O ; cells: H9(HIV-1(IIIB)) ; value: >852 µM
OCCOC(CCO)n1cnc2cc(Cl)c(Cl)cc21 ; cells: E6SM ; value: ≥200 µg/mL
CCOC(=O)c1ccc2c(c1)nc(-c1ccc3c(c1)OCO3)n2CCN1CCCOC1 ; cells: Vero cell ; method: MTT ; value: >62.5 µg/mL
Nc1nc(NC2CC2)c2ncn(C=C3CC3CO)c2n1 ; cells: MEF ; method: neutral red ; value: 220 µM
CCOC(=O)c1ccc2c(c1)nc(-c1ccccc1)n2CCN1CCCOC1 ; cells: Vero cell ; method: MTT ; value: >62.5 µg/mL
CC1=C(C)[C@](CO)(c2ccccc2)C[C@H]1n1cnc2c(N)ncnc21 ; cells: HEL 299 ; value: >100 µg/mL
Nc1ccn([C@@H]2CS[C@H](CO)O2)c(=O)n1 ; cells: CEM-GFP ; method: MTS ; value: >1000 µM
C[N+]1(C)CCN(c2cccc(N3CC[N+](C)(C)CC3)c2[N+](=O)[O-])CC1 ; cells: K562 ; value: >330.4 µg/mL
COC(=O)[C@H](C)NP(=O)(OC[C@H]1C/C1=C/n1cnc2c(N)nc(N)nc21)Oc1ccccc1 ; cells: MEF ; value: 211 µM
CNC(=O)c1ccc(OC(C)C(=O)N2CCN(C(=O)c3ccccc3)C[C@H]2C)c(OC)c1 ; cells: HEK ; value: >10 µM
COc1ccc(Cc2nccc3c(OC)c(OC)ccc23)cc1OC ; cells: H9 ; value: 10.2 µg/mL
COCO[C@@H]1C[C@@H](C(=O)OC)N2CCCC[C@@H]12 ; cells: Human foreskin fibroblasts (HFF) ; method: MTT ; value: 291 µM
Nc1[nH]c(=O)nc2c1ncn2/C=C1/C[C@@H]1CO ; cells: DAUDI ; value: >214 µM
C#CCCC[C@@H]1OC(=O)CNC(=O)[C@H]([C@@H](C)CC)NC(=O)[C@@H]2CCCN2C(=O)[C@H](C(C)C)OC(=O)[C@H](Cc2ccccc2)N(C)C(=O)[C@H](C(C)C)NC(=O)C1(C)C ; cells: HT-29 ; method: MTT ; value: 75 µM
O=C1CCCN1CCCN1CC(=O)N2CC(N(CCOc3ccccc3)S(=O)(=O)c3cccc(F)c3)C[C@H]2C1=O ; cells: HEK ; value: >10 µM
N[C@@H]1CONC1=O ; cells: Vero cell ; method: MTT ; value: >62.5 µg/mL
CC1=C(C)C(CO)(CO)C[C@H]1n1cnc2c(N)ncnc21 ; cells: HEL 299 ; value: >100 µg/mL
O=C1c2ccncc2C(=O)N1CCNC(=S)Nc1ccc(Br)cn1 ; cells: NSO ; value: 14 µM
OCCOC([C@H](O)CO)n1cnc2cc(Cl)c(Cl)cc21 ; cells: E6SM ; value: 400 µg/mL
C=C[C@]1(C)C=C2C(=O)c3c(NC=O)cccc3C(C)(C)[C@H]2C[C@H]1O ; cells: SF268 ; value: >100 µM
CCOc1ccc(Cc2c3cc(OCC)c(OCC)cc3cc(C)[n+]2C)cc1OCC ; cells: H9 ; value: 13 µg/mL
CCOC(=O)c1ccc2nc(-c3ccc(C(F)(F)F)cc3)[nH]c2c1 ; cells: Vero cell ; method: MTT ; value: >62.5 µg/mL
Cc1cn([C@H]2C[C@H](N=[N+]=[N-])[C@@H](CO)O2)c(=O)[nH]c1=O ; cells: CBMC ; value: 74 µM
C=CCC1[C@H](O[Si](C)(C)C(C)(C)C)C[C@@H](C(=O)OC)N1C(=O)OC(C)(C)C ; cells: Human foreskin fibroblasts (HFF) ; method: MTT ; value: 32 µM
O=c1[nH]cnc2c1ncn2[C@H]1CC[C@@H](CO)O1 ; cells: CFU-GM ; value: >400 µM
O=c1[nH]cnc2c1ncn2[C@H]1CC[C@@H](CO)O1 ; cells: CEM-GFP ; method: MTS ; value: >1000 µM
CCCCCCCCCCCCSCC(COP(=O)([O-])OCC[N+](C)(C)C)OCCCCCCCCC(=O)OCC(=O)OC[C@H]1O[C@@H](n2cc(C)c(=O)[nH]c2=O)C[C@@H]1N=[N+]=[N-] ; cells: MRC-9 ; method: neutral red ; value: >100 µM
Nc1nc(N2CC[N+]3(CC2)CC[N+]2(CCN(c4nc(N)[nH]c(=O)c4[N+](=O)[O-])CC2)CC3)c([N+](=O)[O-])c(=O)[nH]1 ; cells: GMK ; value: >330.9 µg/mL
COC(=O)N[C@H](C(=O)N[C@@H](Cc1ccccc1)[C@@H](O)CN(Cc1ccc(-c2ccccn2)cc1)NC(=O)[C@@H](NC(=O)OC)C(C)(C)C)C(C)(C)C ; cells: HKBMM ; method: MTT ; value: >100 µM
C[C@H](Cn1cnc2c(N)ncnc21)OCP(=O)(O)O ; cells: CrFK ; value: >50 µM
Cc1cc(N2CC[N+](C)(C)CC2)c([N+](=O)[O-])c(N2CC[N+](C)(C)CC2)c1 ; cells: L929 ; value: >322.9 µg/mL
OCCOC(CO)n1cnc2cc(Cl)c(Cl)cc21 ; cells: E6SM ; value: ≥400 µg/mL
C=CCC1[C@H](O[Si](C)(C)C(C)(C)C)C[C@@H](C(=O)OC)N1CC=C ; cells: Human foreskin fibroblasts (HFF) ; method: MTT ; value: 54 µM
c1ccc(-c2ccccn2)nc1 ; cells: J774A.1 ; method: absorbance ; value: ≤63 µM
CC1NCCc2cc(O)c(O)cc21 ; cells: H9 ; value: 21.2 µg/mL
Cc1cc(C#N)cc(C)c1Oc1nc(Nc2ccc(C#N)cc2)nc(N)c1Br ; cells: CEM-GFP ; method: MTS ; value: 58 µM
O=[N+]([O-])c1c(Cl)ncnc1N1CC[N+]2(CC1)CC[N+]1(CCN(c3ncnc(Cl)c3[N+](=O)[O-])CC1)CC2 ; cells: GMK ; value: 708.8 µg/mL
Nc1nc2c(ncn2[C@H]2CO[C@@H](CO)O2)c(=O)[nH]1 ; cells: DU145 ; value: >500 µM
CCCC1NCCc2cc(O)c(O)cc21 ; cells: H9 ; value: 21.8 µg/mL
C/C=C1/C(=O)O[C@]23C=C[C@@H]4C(C(=O)OC)=CO[C@H](O[C@@H]12)[C@@H]43 ; cells: J774G8 ; method: MTT ; value: 6.97 µg/mL
COc1nc(N)nc2c1ncn2C=C1CC1CO ; cells: MEF ; value: 261 µM
OC[C@H]1O[C@@H](n2cnc3cc(Cl)c(Cl)cc32)[C@H](O)[C@H]1O ; cells: E6SM ; value: 10 µg/mL
O=c1[nH]cnc2c1ncn2[C@H]1CC[C@@H](CO)O1 ; cells: HeLaT4 ; value: >2500 µM
CCCCS(=O)(=O)NC(=O)C1N=C(c2ccccc2)c2ccccc2NC1=O ; cells: VERO ; value: 15 µM
C[C@@]1(O)[C@H](O)[C@@H](CO)O[C@H]1n1cnc2c(N)ncnc21 ; cells: HB110A ; method: MTS ; value: >100 µM
COC(=O)[C@H](C)NP(=O)(OCC1C/C1=C\n1cnc2c(N)ncnc21)Oc1ccccc1 ; cells: 2.2.15 ; value: 4.5 µM
CCCCCCCCCCCCSCC(COP(=O)([O-])OCC[N+](C)(C)C)OCCCCCCCCO ; cells: MRC-9 ; method: neutral red ; value: >100 µM
Cc1nccc2cc(O)c(O)cc12 ; cells: H9 ; value: 2.22 µg/mL
COc1ccc(OC)c(C(=O)NC2N=C(c3ccccc3)c3ccccc3NC2=O)c1 ; cells: HEP-2 ; value: 5.4 µM
O=c1c2cccn2c2cccc(F)c2n1CCNC(=S)Nc1ccc(Br)cn1 ; cells: NSO ; value: 980 µM
Cc1cn([C@H]2C[C@H](N=[N+]=[N-])[C@@H](CO)O2)c(=O)[nH]c1=O ; cells: CEM-CD4 ; method: MTT ; value: 200 µM

Repeating the final 11 entries:

COc1nc(N)nc2c1ncn2C=C1CC1CO ; cells: MEF ; value: 261 µM
OC[C@H]1O[C@@H](n2cnc3cc(Cl)c(Cl)cc32)[C@H](O)[C@H]1O ; cells: E6SM ; value: 10 µg/mL
O=c1[nH]cnc2c1ncn2[C@H]1CC[C@@H](CO)O1 ; cells: HeLaT4 ; value: >2500 µM
CCCCS(=O)(=O)NC(=O)C1N=C(c2ccccc2)c2ccccc2NC1=O ; cells: VERO ; value: 15 µM
C[C@@]1(O)[C@H](O)[C@@H](CO)O[C@H]1n1cnc2c(N)ncnc21 ; cells: HB110A ; method: MTS ; value: >100 µM
COC(=O)[C@H](C)NP(=O)(OCC1C/C1=C\n1cnc2c(N)ncnc21)Oc1ccccc1 ; cells: 2.2.15 ; value: 4.5 µM
CCCCCCCCCCCCSCC(COP(=O)([O-])OCC[N+](C)(C)C)OCCCCCCCCO ; cells: MRC-9 ; method: neutral red ; value: >100 µM
Cc1nccc2cc(O)c(O)cc12 ; cells: H9 ; value: 2.22 µg/mL
COc1ccc(OC)c(C(=O)NC2N=C(c3ccccc3)c3ccccc3NC2=O)c1 ; cells: HEP-2 ; value: 5.4 µM
O=c1c2cccn2c2cccc(F)c2n1CCNC(=S)Nc1ccc(Br)cn1 ; cells: NSO ; value: 980 µM
Cc1cn([C@H]2C[C@H](N=[N+]=[N-])[C@@H](CO)O2)c(=O)[nH]c1=O ; cells: CEM-CD4 ; method: MTT ; value: 200 µM